A mixed list of measured activities; the numbers were collected in NIAID ChemDB.

Common to all: tests in culture; agent: Hepatitis B virus

An empty or dashed field is not shown.

compound	read by	measure	setting	strain	cells	result
O=C(NCc1ccccc1-c1ncco1)c1c2n(c(=O)n1-c1ccc(OCC(F)(F)F)cc1)CCN(C(=O)c1ccc(Br)c(Cl)c1)C2	PCR	EC50				0.1–0.5 µM
Cn1cc2c(c1C(=O)Nc1ccc(F)c(C(F)F)c1)OC[C@@]1(CCN(C(=O)C(=O)NCC(F)(F)F)C1)NS2(=O)=O	PCR	EC50		Genotype D	HepAD38	<0.5 µM
Cn1cc(S(=O)(=O)N[C@@H]2CCN(C(=O)C(=O)NCC(F)F)C2)c(F)c1C(=O)Nc1ccc(F)c(F)c1	PCR	EC50			HepAD38 cells	<0.1 µM
Cc1cc(NC(=O)c2c3c(cn2C)S(=O)(=O)N[C@H]2CN(C(=O)C(=O)N[C@H](C)C(F)(F)F)C[C@H]2CO3)ccc1F	PCR	EC50		Genotype B	HepG2	0.00158 µM
CCc1cc2c(cc1OCCCOC)S(=O)(=O)Cc1cc(C(=O)O)c(=O)n(C3CC3)c1-2	antigen / visual reading / absorbance	EC50			Primary human hepatocytes	0.05–0.1 µM
COC(=O)C1=C(C)N(C)C(c2ccccn2)=NC1c1ccccc1Cl		EC50			HepG2.2.15	>100 µM
C=C1[C@H](CO)[C@@H](O)C[C@@H]1n1cnc2c(=O)[nH]c(N)nc21	fluorescence	EC50		Genotype D	PHH	<0.0015 µM
C[C@@H](NC(=O)c1c2n(c(=O)n1-c1ccc(-n3cccn3)cc1)CCN(C(=O)c1ccc(Br)c(Cl)c1)C2)c1ccccc1F	PCR	EC50			HepG2.117	<0.1 µM
Cn1nccc1S(=O)(=O)Nc1ccc2c(C(=O)Nc3ccc(F)c(Cl)c3)n(C)nc2c1	PCR	EC50			HepAD38	100–1000 µM
C[C@H](Cn1cnc2c(N)ncnc21)OCP(=O)(O)O	ELISA / antigen	EC50			HepG2.2.15	23.13 µg/mL
C[C@@H](NS(=O)(=O)Nc1ccc2c(C(=O)Nc3ccc(F)c(Cl)c3)n(C)nc2c1)c1ccccn1	PCR	EC50			HepAD38	100–1000 µM
C[C@@H](NC(=O)C(=O)N1C[C@H]2COc3c(cn(C)c3C(=O)Nc3ccc(F)c(C(F)(F)F)c3)S(=O)(=O)N[C@H]2C1)C(F)(F)F	PCR	EC50			HepAD38	<0.5 µM
Cn1cc2c(c1C(=O)Nc1ccc(F)c(Cl)c1)OC[C@@]1(CCN(C(=O)C(=O)NCC(F)(F)F)C1)NS2(=O)=O	PCR	EC50		Genotype D	HepAD38	<0.5 µM
COC(=O)C1=C(c2cccnc2)NC(c2ccccn2)=NC1c1ccccc1Cl		EC50			HepG2.2.15	15 µM
CNC(=O)c1ccc(-n2c(=O)c3c(n4ncc(Cc5ccccc5)c24)CN(C(=O)c2ccc(Br)c(C#N)c2)[C@@H](C)C3)cc1	PCR	EC50	3 d		HepG2.117	0.1–0.5 µM
Cc1c(F)cccc1-n1cc(S(=O)(=O)Nc2ccc3c(C(=O)Nc4ccc(F)c(Cl)c4)n(C)nc3c2)cn1	PCR	EC50			HepAD38	100–1000 µM
N#Cc1cc(C(=O)N2CCc3c(n4ncc(Cc5ccccc5)c4n(-c4ccc(C(=O)NC5CC5)cc4)c3=O)C2)ccc1Br	PCR	EC50	3 d		HepG2.117	>5 µM
COCCNS(=O)(=O)CNc1ccc2c(C(=O)Nc3ccc(F)c(Cl)c3)n(C)nc2c1	PCR	EC50			HepAD38	<100 µM
C[C@@H](c1ccccc1)c1cnc([C@]2(F)CN(C(=O)c3ccc(Br)c(Cl)c3)CCS2(=O)=O)s1	PCR	EC50			HepG2.117	0.5–5 µM
Nc1ccn([C@@H]2CS[C@H](CO)O2)c(=O)n1		EC50			HepG2	0.05 µM
C[C@H](NC(=O)C(=O)N1CCC2(COc3c(c(Cl)n(C)c3C(=O)Nc3ccc(F)c(F)c3)S(=O)(=O)N2)C1)C(F)(F)F	PCR	EC50		Genotype D	HepAD38	<0.5 µM
COCCCOc1cc2c(cc1N)-c1c(cc(C(=O)O)c(=O)n1C1CC1)C(C)S2(=O)=O	antigen / visual reading / absorbance	EC50			Primary human hepatocytes	>0.5 µM
COC(=O)C1=C(C)N(CC(=O)O)C(c2ccccn2)=NC1c1ccccc1Cl		EC50			HepG2.2.15	>100 µM
O=C(CNC(=O)Nc1cccc(F)c1)Nc1ccc(Cl)nc1Cl	PCR	EC50			HepG2.2.15	19 µM
O=C(c1ccc(Cl)cc1F)N1CCS(=O)(=O)[C@H](c2cccs2)C1	PCR	EC50			HepG2.2.15	>5 µM
COc1ccc([C@@H](C)NC(=O)c2c3n(c(=O)n2-c2ccc(OC4CC4)cc2)CCN(C(=O)c2ccc(Br)c(Cl)c2)C3)cc1	PCR	EC50			HepG2.117	0.1–0.5 µM
O=c1[nH]c(=O)n(COC(CO)CO)cc1Cl		EC50		Mutant L180M/M204V	D88	40 µg/mL
CNS(=O)(=O)N1CC[C@@H](NS(=O)(=O)c2c(F)c(C(=O)Nc3cc(F)c(F)c(F)c3)n3c2CCC3)C1	PCR	EC50			HepAD38 cells	<0.1 µM
COc1cc2c(cc1Cl)-c1c(cc(C(=O)O)c(=O)n1C1CC1)C(C)S2	antigen / visual reading / absorbance	EC50			Primary human hepatocytes	>0.5 µM
Cc1cc(NC(=O)c2c3c(cn2C)S(=O)(=O)NC2CN(C(=O)C(=O)NC4CC4)CC2CO3)ccc1F	PCR	EC50			HepAD38	<0.5 µM
COC(=O)C1=C(C)NC(c2ncccc2OC)=N[C@H]1c1ccc(F)cc1Cl		EC50			HepG2.2.15	>5 µM
Cc1cc(NC(=O)c2c3c(cn2C)S(=O)(=O)NC2CCN(C(=O)C(=O)N[C@H](C)C(F)(F)F)CC2CO3)ccc1F	PCR	EC50			HepAD38	<0.5 µM
Cn1nc2cc(NS(=O)(=O)Cc3ccccc3)ccc2c1C(=O)Nc1ccc(F)c(Cl)c1	PCR	EC50			HepAD38	100–1000 µM
CCC1c2cc(C(=O)O)c(=O)n(C3CCC3)c2-c2cc(Cl)c(OCCCOC)cc2S1(=O)=O	antigen / visual reading / absorbance	EC50			Primary human hepatocytes	>0.5 µM
CCOC(=O)Cn1cc(S(=O)(=O)Nc2ccc3c(C(=O)Nc4ccc(F)c(Cl)c4)n(C)nc3c2)cn1	PCR	EC50			HepAD38	>1000 µM
CCc1cc2c(cc1OCCCOC)S(=O)(=O)C(C)c1cc(C(=O)O)c(=O)n(C3CC3)c1-2	antigen / visual reading / absorbance	EC50			Primary human hepatocytes	>0.1 µM
Cn1nc2cc(NS(=O)(=O)c3cnn(-c4ccnc(Cl)n4)c3)ccc2c1C(=O)Nc1ccc(F)c(Cl)c1	PCR	EC50			HepAD38	>1000 µM
Cc1cccnc1-c1ccccc1CNC(=O)c1c2n(c(=O)n1-c1ccc(OC3CC3)cc1)CCN(C(=O)c1ccc(Br)c(Cl)c1)C2	PCR	EC50			HepG2.2.15	0.5–5 µM
COCCCOc1ccc2c(c1Br)S(=O)(=O)C(C)c1cc(C(=O)O)c(=O)n(C3CC3)c1-2	antigen / visual reading / absorbance	EC50			Primary human hepatocytes	>0.5 µM
COC(=O)C1=C(C)NC(c2ccccn2)=N[C@H]1c1ccccc1Cl		EC50			HepG2.2.15	2 µM
CNC(=O)C(=O)N1CC[C@@H](NS(=O)(=O)c2cn(C)c(C(=O)Nc3ccc(F)c(Cl)c3)c2F)C1	PCR	EC50			HepAD38 cells	<0.1 µM
COC(=O)C1=C(C)NC(c2ccccn2)=N[C@H]1c1ccc(F)cc1Cl		EC50			HepG2.2.15	0.4 µM
Cc1cc(NC(=O)c2c3c(cn2C)S(=O)(=O)NC2CCN(C(=O)C(=O)N4CC(F)(F)C4)CC2CO3)ccc1F	PCR	EC50			HepAD38	<0.5 µM
O=C(NCc1cccc2[nH]cnc12)c1c2n(c(=O)n1-c1ccc(OC3CC3)cc1)CCN(C(=O)c1ccc(Br)c(Cl)c1)C2	PCR	EC50			HepG2.117	0.1–0.5 µM
C[C@@H](NC(=O)C(=O)N1CCC2(COc3c(cn(C)c3C(=O)Nc3ccc(F)c(F)c3)S(=O)(=O)N2)C1)C(F)(F)F	PCR	EC50		Genotype D	HepAD38	<0.5 µM
O=C(O)c1cc2c(n(C3CC3)c1=O)-c1cc(Cl)c(OCC(F)F)cc1S(=O)(=O)C2	antigen / visual reading / absorbance	EC50			Primary human hepatocytes	0.1–0.5 µM
COC(=O)C1=C(C)NC(c2ncccc2F)=N[C@H]1c1ccc(F)cc1Cl		EC50			HepG2.2.15	0.14 µM
O=C(Nc1ccccc1)C1CN(C(=O)c2ccc(Br)c(Cl)c2)CCS1(=O)=O	PCR	EC50			HepG2.117	0.5–5 µM
C/C=C(/C)C(=O)Oc1c(OC)c(OC)cc2c1-c1c(cc(OC)c(OC)c1OC)C[C@H](C)[C@H](C)C2	ELISA / antigen	EC50			HepG2.2.15	<9.73 µg/mL
O=C(c1ccc(Br)c(Cl)c1)N1CCS(=O)(=O)[C@@](F)(c2ncc(Cc3ccccc3)s2)C1	PCR	EC50			HepG2.117	0.5–5 µM
COC(=O)C1=C(C)NC(c2ccccn2)=NC1c1ccccc1[N+](=O)[O-]		EC50			HepG2.2.15	20 µM
Cc1ccnc(-n2cc(S(=O)(=O)Nc3ccc4c(C(=O)Nc5ccc(F)c(Cl)c5)n(C)nc4c3)cn2)c1	PCR	EC50			HepAD38	<100 µM
CNC(=O)c1ccc(-n2c(=O)c3c(n4ncc(Cc5ccc(F)cc5)c24)CN(C(=O)c2ccc(Br)c(C#N)c2)CC3)cc1	PCR	EC50	3 d		HepG2.117	<0.1 µM
N#Cc1ccc(-n2c(C(=O)NCc3ccccc3)c3n(c2=O)CCN(C(=O)c2ccc(Br)c(Cl)c2)C3)c(Cl)c1	PCR	EC50			HepG2.117	>5 µM
O=C(CNC(=O)c1ccccn1)Nc1ccc(Cl)nc1Cl	PCR	EC90			HepG2.2.15	15 µM
COC(=O)c1cccc(CNC(=O)c2c3n(c(=O)n2-c2ccc(OC)cc2)CCN(C(=O)c2ccc(Br)c(Cl)c2)C3)c1	PCR	EC50			HepG2.117	0.1–0.5 µM
CC(C)Oc1cc2c(cc1Cl)-c1c(cc(C(=O)O)c(=O)n1C1CC1)C(C)S2(=O)=O	antigen / visual reading / absorbance	EC50			Primary human hepatocytes	0.1–0.5 µM
Cc1cc(NC(=O)c2c3c(cn2C)S(=O)(=O)NC2CN(C(=O)C(N)=O)CC2CO3)ccc1F	PCR	EC50			HepAD38	<0.5 µM
CN(C)C(=O)NCC(=O)Nc1ccc(Cl)nc1Cl	PCR	EC50			HepG2.2.15	>100 µM
O=C(c1ccc(Br)c(Cl)c1)N1CCn2c(c3n(c2=O)CC2(COC2)CN(Cc2ccccc2)C3=O)C1	PCR	EC50			HepG2.117	0.5–5 µM
C[C@H](Cn1cnc2c(N)ncnc21)OCP(=O)(O)O	PCR	EC50			HepG2.2.15	2.54 µM
COc1cccc(NC(=O)NCC(=O)Nc2ccc(Cl)nc2Cl)c1	PCR	EC90			HepG2.2.15	>100 µM
Cc1cc(NC(=O)c2c3c(cn2C)S(=O)(=O)N[C@H]2CN(C(=O)C(=O)N4CC(F)(F)C4)C[C@H]2CS3)ccc1F	PCR	EC50			HepAD38	<0.5 µM
CC(C)NC(=O)c1ccc(-n2c(=O)c3c(n4ncc(Cc5ccccc5)c24)CN(C(=O)c2ccc(Br)c(Cl)c2)CC3)cc1	PCR	EC50	3 d		HepG2.117	0.5–5 µM
CNC(=O)C(=O)N1CC[C@@H](NS(=O)(=O)c2c(Cl)c(C(=O)Nc3cc(F)c(F)c(F)c3)n3c2CCC3)C1	PCR	EC50			HepAD38 cells	0.1–0.3 µM

ECn is the concentration giving n% inhibition of infection, replication or growth. Two numbers with a dash give a range or band. Rows are shuffled and stem from different studies.